Two molecules from paper PMC5731819, “Single-molecule studies contrast ordered DNA replication with stochastic translesion synthesis” (eLife, 2017) can be followed below.

The target in experiment [1] is T1, E. coli DNA sliding clamp β (E. coli, UniProt P0A988 1-366, maleimide-Atto647N on a single cysteine residue (position not given)).
T1 construct: DNA polymerase III subunit beta (sliding clamp β), E. coli, gene dnaN; also called β-clamp; β2 clamp; not shown: His tag (from the vector pET28a)
T1 sequence (looked up): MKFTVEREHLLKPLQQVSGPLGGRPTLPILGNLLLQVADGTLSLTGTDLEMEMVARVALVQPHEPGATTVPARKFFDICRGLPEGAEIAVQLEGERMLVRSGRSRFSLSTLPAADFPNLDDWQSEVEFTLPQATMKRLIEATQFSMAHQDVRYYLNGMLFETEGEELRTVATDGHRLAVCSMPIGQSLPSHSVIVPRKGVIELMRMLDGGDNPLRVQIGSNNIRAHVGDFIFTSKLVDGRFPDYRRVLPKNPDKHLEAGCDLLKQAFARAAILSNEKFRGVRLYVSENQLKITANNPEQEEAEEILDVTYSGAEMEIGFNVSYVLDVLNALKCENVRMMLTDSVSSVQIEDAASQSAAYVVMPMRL
The experiment can be described thus: co-localization single-molecule spectroscopy (CoSMoS, TIRF); labelled Pol IIIcore (30 nM) on β-clamp loaded on surface-held matched DNA, no dNTPs; 23 °C, 20 mM Tris-HCl pH 7.5, 50 mM potassium glutamate, 8 mM MgCl2. To be noted: both partners purified.

Experiment [2] addresses T2, Pol IIIα (polymerase subunit α of Pol IIIcore), Atto 488 labelled (E. coli, UniProt P10443 1-1160, Atto 488 (CoA-linked) conjugated by Sfp to the N-terminal Ybbr tag).
T2 construct: DNA polymerase III subunit alpha (Pol IIIα), E. coli, gene dnaE; Observed as a subunit of Pol IIIcore on clamp-DNA; also called Pol IIIα-NYbbr; Pol IIIα-Atto 488
T2 sequence (looked up): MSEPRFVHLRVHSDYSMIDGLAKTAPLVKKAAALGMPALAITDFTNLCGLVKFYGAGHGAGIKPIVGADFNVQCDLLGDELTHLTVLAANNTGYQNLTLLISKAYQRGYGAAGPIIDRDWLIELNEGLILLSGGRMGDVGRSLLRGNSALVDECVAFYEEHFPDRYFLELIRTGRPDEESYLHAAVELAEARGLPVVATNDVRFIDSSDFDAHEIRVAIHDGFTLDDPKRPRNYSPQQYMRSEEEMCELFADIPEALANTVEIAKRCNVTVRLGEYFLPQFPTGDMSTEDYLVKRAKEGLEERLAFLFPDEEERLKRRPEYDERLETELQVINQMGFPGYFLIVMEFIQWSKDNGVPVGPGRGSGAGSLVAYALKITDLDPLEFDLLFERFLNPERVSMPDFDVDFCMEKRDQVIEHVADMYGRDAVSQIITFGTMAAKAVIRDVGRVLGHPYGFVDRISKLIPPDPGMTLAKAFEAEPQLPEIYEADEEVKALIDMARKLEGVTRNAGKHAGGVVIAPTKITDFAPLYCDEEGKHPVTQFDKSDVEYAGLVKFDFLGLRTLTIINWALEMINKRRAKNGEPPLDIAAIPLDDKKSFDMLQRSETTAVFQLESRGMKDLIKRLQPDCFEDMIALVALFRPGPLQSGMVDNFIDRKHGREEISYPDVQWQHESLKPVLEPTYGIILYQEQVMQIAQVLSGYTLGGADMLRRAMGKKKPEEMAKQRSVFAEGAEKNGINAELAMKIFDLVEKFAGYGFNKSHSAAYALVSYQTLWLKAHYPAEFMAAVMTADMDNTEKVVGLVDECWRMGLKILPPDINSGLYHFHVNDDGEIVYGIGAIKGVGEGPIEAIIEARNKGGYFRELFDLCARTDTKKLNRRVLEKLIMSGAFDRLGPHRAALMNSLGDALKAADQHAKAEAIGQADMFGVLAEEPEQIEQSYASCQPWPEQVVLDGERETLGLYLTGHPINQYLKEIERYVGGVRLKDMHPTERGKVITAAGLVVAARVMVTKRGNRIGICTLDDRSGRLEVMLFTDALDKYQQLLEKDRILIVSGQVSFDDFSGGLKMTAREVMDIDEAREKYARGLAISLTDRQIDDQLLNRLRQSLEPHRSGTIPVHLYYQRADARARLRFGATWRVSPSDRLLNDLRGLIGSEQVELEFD
In words: co-localization single-molecule spectroscopy (CoSMoS, TIRF); Pol IIIcore with Atto 488 on α and Atto 565 on ε, on β-clamp loaded on surface-held DNA. The following applies: both partners purified.

B1: Pol IIIcore (α, ε, θ), wild type, labelled on the α subunit (complex, E. coli)
chain 1: T2 sequence (looked up)
chain 2: MSTAITRQIVLDTETTGMNQIGAHYEGHKIIEIGAVEVVNRRLTGNNFHVYLKPDRLVDPEAFGVHGIADEFLLDKPTFAEVADEFMDYIRGAELVIHNAAFDIGFMDYEFSLLKRDIPKTNTFCKVTDSLAVARKMFPGKRNSLDALCARYEIDNSKRTLHGALLDAQILAEVYLAMTGGQTSMAFAMEGETQQQQGEATIQRIVRQASKLRVVFATDEEIAAHEARLDLVQKKGGSCLWRA
chain 3: MLKNLAKLDQTEMDKVNVDLAAAGVAFKERYNMPVIAEAVEREQPEHLRSWFRERLIAHRLASVNLSRLPYEPKLK
modifications: Atto 488 (CoA-linked) conjugated by Sfp to the N-terminal Ybbr tag
notes: DNA polymerase III subunit alpha (Pol IIIα), E. coli, gene dnaE; DNA polymerase III subunit epsilon (proofreading exonuclease ε), E. coli, gene dnaQ; DNA polymerase III subunit theta (θ), E. coli, gene holE; also called replicative DNA polymerase; source: assembly of the core not described; not shown: His tag (from the vector pET28a); copies: + +
Consider B1, for which the “lifetime on clamp-DNA” value in experiment [1] was 15.7 s.

B2: proofreading exonuclease ε (subunit of Pol IIIcore), Atto 565 labelled (enzyme, E. coli, UniProt P03007 1-243, looked up)
chain: B1 chain 2
modifications: Atto 565 (CoA-linked) conjugated by Sfp to the N-terminal Ybbr tag
notes: DNA polymerase III subunit epsilon (ε), E. coli, gene dnaQ; Observed as a subunit of Pol IIIcore on clamp-DNA; also called ε-NYbbr; ε-Atto 565; not shown: His tag (from the vector pET28a)
With B2, in experiment [2], the binding result is listed as “binds”.
